We go through one substance from patent US9492554B2, “Methods and compositions related to viral inhibition” (Clemson University Research Foundation (CURF), priority 2009, dated 2016).

This series relates to TAR RNA. Briefly: ITC titration of TAR RNA with Neomycin. It is filed as binding, HIV-1. A general note: ITC needs no label: the signal is the heat of the interaction.

Take neomycin: the ΔH (20° C.) was -22.1 ± 1.1 kcal/mol. In addition, the N (Neomycin (80 μM) injected to TAR RNA (4 μM/molecule) at 20° C.) turned out to be 1.09 ± 0.04.
